Where “and” joins values, the source holds several entries; their conditions need not be identical. Equal entries are not always repeated.
B1: Nanosota-2A-Fc (Fc fusion)
chain: QVQLQESGGGAVQPGGSLGLSCTASGFNFETSTVGWFRQAPGKENEGVSCINKGYEDTNYADSVKGRFTISRDAAKNTVYLQMDSLQPEDTATYYCAAHNEPYFCDYSGRFRWNEYSYYGQGTQVTVSS[human IgG1 Fc omitted here]
B2: Nanosota-3A-Fc (Fc fusion)
chain: QVQLQESGGGLVQAGGSLRLSCAASGSIFSPNTMGWFRQALGKQREMVAVISSIASTQYANFVKGRFTITRDNTKNTVHLQMNSLIPEDTAVYYCYAVDKSQDYWGQGTQVTVSS[human IgG1 Fc omitted here]

Molecular target: prototypic SARS-CoV-2 spike (Wuhan strain plus D614G), full length (SARS-CoV-2 (prototypic))
Test: cell-based or functional assay

| Binder | IC50, live virus plaque reduction neutralization on Vero E6 cells (WT) | IC50, pseudovirus entry into human ACE2-expressing HEK293T cells (WT) | IC50, pseudovirus entry (WT) |
| --- | --- | --- | --- |
| B1 | 0.16 ng/ml and 2 pM | 0.5 ng/ml and 6.2 pM | – |
| B2 | – | – | 74 pM and 5.7 ng/ml |
